# PubChem BioAssay AID1347417 (National Center for Advancing Translational Sciences (NCATS), 2020)
# The list shows a part of the results, in another mix than the full data. Records with an inconclusive call do not appear. Calls of active or inactive are those of the source. The call rests on the fitted dose curve; in most records, active means well fitted inhibition curve with a large enough effect; inconclusive means small, poorly fitted or top-dose-only effect; inactive means no such curve, though single readings can be large or run the other way.
# Assay: qHTS Primary assay for Inhibitors of Plasmodium falciparum Dd2 growth in vitro;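 further: plate controls were DMSO vehicle for no effect and reference drug for full effect; nearly all actives have a fitted effect of over 65% in size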
# Details: P. falciparum Dd2 growth, SYBR Green, 72 h; at 44.1 µM (top of the series)
# Excerpt: Malaria, a parasitic disease spread to humans through the bite of a Plasmodium infected Anopheles mosquito, continues to be a global health burden affecting millions of people, with an estimated 228 million cases and 405,000 deaths in 2018. Concerns about safety and limitations of current antimalarial treatments strongly emphasize the need to develop new therapeutic options. The scarce number of chemotypes and validated drug targets with efficacy against the liver stage, have hindered development of new antimalarials. To address this, a chemoprophylactic drug discovery effort was conducted through a combined phenotypic high-throughput asexual blood stage and liver stage screen, providing a robust foundation to identify liver-stage active lead chemotypes. Compounds were initially screened against Plasmodium falciparum Dd2 strain parasites using a in vitro SYBRGreen-1 based 72 hr proliferation assay to identify novel chemotypes to advance to liver stage assays. NIH/NCATS Early Translation Branch Assay Submitter (PI): Anton Simeonov Ph.D.
# Malaria-vivax Assay Protocol: PROTOCOL TABLE (as described by Inglese et al., 2007) SEQUENCE No. (e.g., 1, 2, 3, etc.); […] […] Compound Management for Quantitative High-Throughput Screening. […]
row,SMILES,"activity, negative = inhibition"
1,CNCc1cc2ccccc2o1,inactive: -19.1%
2,CNCc1cccc(C)n1,inactive: -4.38%
